Measured values from several laboratories, pooled; numbers as filed in NIAID ChemDB.

Common to all: whole-cell or culture tests; species: Hepatitis C virus; method: luciferase; measure: EC50

ECn is the concentration giving n% inhibition of infection, replication or growth. Conditions beyond the fields shown may differ between rows. Blank or dashed fields: not listed here.

SMILES,mutations,conditions,cells,strain or isolate,result
COC(=O)N[C@H](C(=O)N1C[C@@H](C)C[C@H]1c1ncc(-c2ccc(-c3ccc(-c4cc5[nH]c([C@@H]6C[C@H](C)CN6C(=O)[C@@H](NC(=O)OC)C(C)C)nc5s4)cc3C)cc2)[nH]1)C(C)C,-,genotype 1b,Huh 5-2,-,0.000008 µM
[N-]=[N+]=NC[C@@]1(O)[C@@H](CO)O[C@@H](n2cnc3c(=O)[nH]cnc32)[C@@H]1O,-,-,Huh 5-2,genotype 1,>100 µM
Cc1[nH]c(NC(=O)C(C)c2ccccc2)nc1-c1ccc(C(=O)O)c(S(C)(=O)=O)c1,-,-,Huh7,1b,>10 µM
CC(C)[C@H](N)CC(=O)OC[C@@]1(N=[N+]=[N-])O[C@@H](n2ccc(=O)[nH]c2=O)[C@@H](C)[C@@H]1O,-,-,Huh7,-,0.79 µM
CC(C)=CCc1c(O)cc2oc3cc(O)c(O)c(CC=C(C)C)c3c(=O)c2c1O,-,-,Huh7.5,J6/JFH-1 (gt 2a),2.7 µM
CC(C)CC[C@@]1(C)C(=O)C(C2=NS(=O)(=O)c3cc(NS(C)(=O)=O)ccc3N2)=C(O)c2ccccc21,-,-,Huh7,4a,0.3882 µM
CCCCOC(=O)/C=C/c1ccc(O)c(O)c1,-,-,Huh7,2a,13.5 µM
CC1=CC[C@H](C(=O)N(c2cc(C#CC(C)(C)C)sc2C(=O)O)C2CCC(O)(CO[C@H]3CCOC3)CC2)CC1,-,-,Huh7,Con1 (gt 1b),0.005 µM
C[C@@H]1[C@H](n2ccc(=O)[nH]c2=O)O[C@@](COP(=O)(N[C@@H](C)C(=O)OCc2ccccc2)Oc2cccc3ccccc23)(N=[N+]=[N-])[C@H]1O,-,-,Huh7,-,6.2 µM
COc1ccc2c(O[C@@H]3C[C@H]4C(=O)N[C@]5(C(=O)NS(=O)(=O)C6CC6)C[C@@]5(F)/C=C\CCCCN(C)C(=O)[C@@H]4C3)cc(-c3nc(C(C)C)cs3)nc2c1C,-,genotype 1b,Huh7,-,15 µM
O=c1cc(OCc2cccc(F)c2)oc2cc(-c3ccccc3)c(OCc3cccc(F)c3)c(O)c12,-,-,Huh 5-2,-,10 µM
COc1ccc2c(O[C@@H]3C[C@H]4C(=O)N[C@]5(C(=O)O)C[C@H]5/C=C\CCCCCN(NC(=O)OC(C)(C)C)C(=O)[C@@H]4C3)cc(-c3ccccc3)nc2c1,-,-,Huh7-Rep,1b,>0.01 µM
N#Cc1cccc(COc2cc(=O)c3c(O)c(OCc4cccc(C#N)c4)c(-c4ccccc4)cc3o2)c1,-,-,Huh 5-2,-,42 µM
CN(CC(F)(F)F)c1nc(NCc2ccc(S(N)(=O)=O)cc2)nc2ccc(-c3ccc(F)nc3)nc12,-,-,-,1b,0.01 µM
O=C(N[C@@H](C(=O)N1CCC[C@H]1C(=O)Nc1nc(-c2ccccc2)cs1)c1ccccc1)C1CC1,-,-,JFH1,genotype 2a,0.8076 µM
O=C1N[C@H]2C(=O)N[C@H]3C(=O)N[C@H](C(=O)N[C@H](C(=O)O)c4cc(O)cc(O)c4-c4cc3ccc4O)[C@H](O)c3ccc(c(Cl)c3)Oc3cc2cc(c3O)Oc2ccc(cc2Cl)C[C@H]2NC(=O)[C@H](NOC(=O)C34CC5CC(CC(C5)C3)C4)c3ccc(O)c(c3)Oc3cc(O)cc(c3)[C@@H]1NC2=O,-,-,-,Huh 5-2,4.6 µM
O=C(OC[C@H]1O[C@@H](OC(=O)c2cc(O)c(O)c(OC(=O)c3cc(O)c(O)c(O)c3)c2)[C@H](OC(=O)c2cc(O)c(O)c(OC(=O)c3cc(O)c(O)c(O)c3)c2)[C@@H](OC(=O)c2cc(O)c(O)c(OC(=O)c3cc(O)c(O)c(O)c3)c2)[C@@H]1OC(=O)c1cc(O)c(O)c(OC(=O)c2cc(O)c(O)c(O)c2)c1)c1cc(O)c(O)c(OC(=O)c2cc(O)c(O)c(O)c2)c1,-,-,Huh7.5,-,5.8 µM
COc1ccc(-c2nc(NC(=O)[C@H](C)c3ccc(Cl)cc3)[nH]c2C)cc1S(=O)(=O)CCO,-,-,Huh7,1b,0.83 µM
O=C(N[C@@H](C(=O)N1CCC[C@H]1c1ncc(-c2ccc(-c3ccc(-c4cnc([C@@H]5CCCN5C(=O)[C@H](NC(=O)C5CC5)c5ccccc5)s4)cc3)cc2)s1)c1ccccc1)C1CC1,-,-,Huh7.5,genotype 1b Con1,0.0000039 µM
COc1ccc(-c2nc(NC(=O)[C@@H](C)c3ccc(Cl)cc3)[nH]c2C)cc1S(=O)(=O)CCO,-,-,Huh7,1b,0.027 µM
CC(C)C(=O)O[C@H]1[C@H](C)[C@H](n2ccc(=O)[nH]c2=O)O[C@@]1(CO)N=[N+]=[N-],-,-,Huh7,-,6.5 µM
C=C[C@@H]1C[C@]1(NC(=O)[C@@H]1C[C@@H]2CN1C(=O)[C@H](C(C)(C)C)NC(=O)OCCC/C=C/c1ccc3ccnc(c3c1)O2)C(=O)NS(=O)(=O)C1CC1,-,-,-,-,0.00158 µM
CCCCCCOC(=O)/C=C/c1ccc(O)c(O)c1,-,-,Huh7,2a,7.3 µM
COc1nc(N)nc2c1ncn2[C@@H]1O[C@H](COP(=O)(N[C@@H](C)C(=O)OCC(C)(C)C)Oc2cccc3ccccc23)[C@@H](O)[C@@]1(C)O,-,24 h,Huh7,2a,0.0009 µM
Cc1cc(N2CCOCC2)ccc1Nc1ncnc2ccc(-c3nccs3)cc12,-,-,Huh,1b,<1 µM
CCCCCCCC(=O)Oc1cccc(O)c1C(=O)NC(=O)NC1c2ccccc2-c2ccccc21,Wild type,-,Huh7.5.1,JFH1-2a,0.27 µM
COc1c(-c2ccc3cc(NS(C)(=O)=O)ccc3c2)cc(-n2ccc(=O)[nH]c2=O)cc1C(C)(C)C,-,-,Huh7,genotype 1a H77,0.00096 µM
O=C(O[C@@H]1Cc2c(O)cc(O)cc2O[C@@H]1c1cc(O)c(O)c(O)c1)c1cc(O)c(O)c(O)c1,-,-,-,1a,5 µM
Cc1cc(-c2nnc(NC3CC(O)(C(F)F)C3)o2)nc2c(C(C)(C)C)cc(NCC(F)(F)F)cc12,-,-,Huh7,WT 1b,0.00008 µM
O=c1cc(OCc2cccc(Cl)c2)oc2cc(-c3ccccc3)c(OCc3cccc(Cl)c3)c(O)c12,-,-,Huh 5-2,-,13 µM
CNc1ncnc2c1ncn2[C@@H]1O[C@H](CO)[C@](O)(CN=[N+]=[N-])[C@H]1O,-,-,Huh 5-2,genotype 1,>100 µM
Nc1ncnc2c1cnn2[C@@H]1C=C(CO)[C@@H](O)[C@H]1O,-,-,Huh7,-,>100 µM
COC(=O)N[C@H](C(=O)N1CCC[C@H]1c1ncc(-c2ccc(-c3ccc(-c4cnc([C@@H]5CCCN5C(=O)[C@@H](NC(=O)OC)C(C)C)[nH]4)cc3)cc2)[nH]1)C(C)C,Q30H,-,Lunet,1a,0.0089 µM
CNC(=O)c1c(-c2ccc(F)cc2)oc2cc(N(Cc3ccc(B(O)O)c(F)c3)S(C)(=O)=O)c(C3CC3)cc12,-,-,Huh7.5,H77 genotype 1a,0.003 µM
O=c1cc(OCc2cccc([N+](=O)[O-])c2)oc2cc(-c3ccccc3)c(OCc3cccc([N+](=O)[O-])c3)c(O)c12,-,-,Huh 5-2,-,>100 µM
Nc1ncnc2c1c(I)nn2[C@@H]1C=C(CO)[C@@H](O)[C@H]1O,-,-,Huh7,-,6.6 µM
CCCC(=O)OC[C@@]1(N=[N+]=[N-])O[C@@H](n2ccc(=O)[nH]c2=O)[C@@H](C)[C@@H]1O,-,-,Huh7,-,3.6 µM
CCN(CC)[C@@H](C(=O)N1CCC[C@H]1C(=O)Cc1ccc(-c2ccc(NC(=O)[C@@H]3CCCN3C(=O)[C@@H](c3ccccc3)N(CC)CC)cc2)cc1)c1ccccc1,-,-,Huh7.5.1,GT1b,0.00027 µM

4 of the rows above, restated:

SMILES | mutations | conditions | cells | strain or isolate | result
COc1nc(N)nc2c1ncn2[C@@H]1O[C@H](COP(=O)(N[C@@H](C)C(=O)OCC(C)(C)C)Oc2cccc3ccccc23)[C@@H](O)[C@@]1(C)O | - | 24 h | Huh7 | 2a | 0.0009 µM
CCCCCCCC(=O)Oc1cccc(O)c1C(=O)NC(=O)NC1c2ccccc2-c2ccccc21 | Wild type | - | Huh7.5.1 | JFH1-2a | 0.27 µM
O=c1cc(OCc2cccc(Cl)c2)oc2cc(-c3ccccc3)c(OCc3cccc(Cl)c3)c(O)c12 | - | - | Huh 5-2 | - | 13 µM
CNc1ncnc2c1ncn2[C@@H]1O[C@H](CO)[C@](O)(CN=[N+]=[N-])[C@H]1O | - | - | Huh 5-2 | genotype 1 | >100 µM